Test results taken from the supplement of paper PMC9931576.
Human monoclonal antibodies against the spike receptor-binding domain (heavy:light variable regions). IC50 against pseudoviruses bearing the spike of naturally observed variants; lower = stronger; >10 µg/ml means not reached at the top dose. No active / inactive call. The stated detection limit is 0.0005 µg/ml; values near or below 0.001 µg/ml lie at the floor of the assay.

Assays:
Experiment in all cases: pseudovirus neutralization IC50; higher = weaker neutralization
[1] = molecular target: SARS-CoV-2 Omicron BA.1 spike pseudovirus
Experimental: (§1)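 Single-round VSV luciferase pseudovirus mixed with antibody dilutions for 1 h and put on Huh-7 cells for about a day; IC50 from the dose curve.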

[2] = molecular target: SARS-CoV-2 Omicron BA.2 spike pseudovirus
Experimental: as §1

[3] = molecular target: SARS-CoV-2 Omicron BA.2.75 spike pseudovirus
Experimental: as §1

[4] = molecular target: SARS-CoV-2 Omicron BA.2.75.2 spike pseudovirus
Experimental: as §1

[5] = molecular target: SARS-CoV-2 Omicron BA.5 spike pseudovirus
Experimental: as §1

[6] = molecular target: SARS-CoV-2 Omicron BM.1.1.1 spike pseudovirus
Experimental: as §1

[7] = molecular target: SARS-CoV-2 Omicron BQ.1.1 spike pseudovirus
Experimental: as §1

[8] = molecular target: SARS-CoV-2 Omicron BR.2 spike pseudovirus
Experimental: as §1

[9] = molecular target: SARS-CoV-2 Omicron CA.1 spike pseudovirus
Experimental: as §1

[10] = molecular target: SARS-CoV-2 Omicron XBB spike pseudovirus
Experimental: as §1

[11] = molecular target: SARS-CoV-2 early D614G spike pseudovirus
Experimental: as §1

B1: BD58-0412 (protein)
chain 1: EVQLVESGGGVVQPGGSLRLSCAASGFTFDDYAMHWVRQAPVKGLEWVSLISGDGGSTYYADSVKGRFTISRDNSKNSLYLQMNSLRTEDTALYYCAKDGYSDSSGYPNWFDPWGQGTLVTVSS
chain 2: EIVLTQSPGTLSLSPGERATLSCRASQSVSSSFLAWYQQKPGQAPRLLIYAASSRATGIPDKFSGSGSGTDFTLTISRLEPEDFAVYYCQQYGSSPYTFGQGTKLEIK
pseudovirus neutralization IC50 [1]: 0.00135 mg/L | pseudovirus neutralization IC50 [2]: 0.0007 mg/L | pseudovirus neutralization IC50 [3]: 0.354 mg/L | pseudovirus neutralization IC50 [4]: > 10 mg/L | pseudovirus neutralization IC50 [5]: 1.3 mg/L | pseudovirus neutralization IC50 [6]: > 10 mg/L | pseudovirus neutralization IC50 [7]: > 10 mg/L | pseudovirus neutralization IC50 [8]: > 10 mg/L | pseudovirus neutralization IC50 [9]: > 10 mg/L | pseudovirus neutralization IC50 [10]: > 10 mg/L | pseudovirus neutralization IC50 [11]: > 10 mg/L

B2: BD58-0420 (protein)
chain 1: QVQLVESGGGVVQPGRSLRLSCAASGFTFSSYGMHWVRQAPGKGLEWVAVISYDGSNKYYVDSVKGRFTISRDNSKNTLYLQMNSLRAEDTAVYYCAKDISFYYGMDVWGQGTTVTVSS
chain 2: NFMLTQPHSVSESPGKTVTISCTGSSGSIASNYVQWYQQRPGSAPTTVIYEDNQRPSGVPDRFSGSIDSSSNSASLTISGLKTEDEADYYCQSYAGSNVVFGGGTKLTVL
pseudovirus neutralization IC50 [1]: > 10 mg/L | pseudovirus neutralization IC50 [2]: 4.76 mg/L | pseudovirus neutralization IC50 [3]: > 10 mg/L | pseudovirus neutralization IC50 [4]: > 10 mg/L | pseudovirus neutralization IC50 [5]: > 10 mg/L | pseudovirus neutralization IC50 [6]: > 10 mg/L | pseudovirus neutralization IC50 [7]: > 10 mg/L | pseudovirus neutralization IC50 [8]: > 10 mg/L | pseudovirus neutralization IC50 [9]: > 10 mg/L | pseudovirus neutralization IC50 [10]: > 10 mg/L | pseudovirus neutralization IC50 [11]: > 10 mg/L

B3: BD58-0431 (protein)
chain 1: EVQLVESGGGLVQPGGSLRLSCAASGFTFRSYWMSWVRQAPGKGLEWVANVKQDGSEKYYVDSVKGRFTISRDNAKNSLYLQMNSLRAEDTAVYYCARVPPPAADAFDIWGQGTMVTVSS
chain 2: SYVLTQPPSVSVAPGKTARITCGGNNIGSKSVHWYQQKPGQAPVLVIYYDSDRPSGIPERFSGSNSGNTATLTISRVEAGDEADYYCQVWDGGSDHVVFGGGTKLTVL
pseudovirus neutralization IC50 [1]: > 10 mg/L | pseudovirus neutralization IC50 [2]: 3.61 mg/L | pseudovirus neutralization IC50 [3]: 3.7 mg/L | pseudovirus neutralization IC50 [4]: 3.33 mg/L | pseudovirus neutralization IC50 [5]: 4.9 mg/L | pseudovirus neutralization IC50 [6]: > 10 mg/L | pseudovirus neutralization IC50 [7]: > 10 mg/L | pseudovirus neutralization IC50 [8]: > 10 mg/L | pseudovirus neutralization IC50 [9]: > 10 mg/L | pseudovirus neutralization IC50 [10]: > 10 mg/L | pseudovirus neutralization IC50 [11]: > 10 mg/L

B4: BD58-0449 (protein)
chain 1: QVTLRESGPALVKPTQTLTLTCTFSGFSLSTSGMCVSWIRQPPGKALEWLALIAWDDDKYYNTSLKTRLTISKDTSKNQVVLTMTNMDPVDTATYYCARSDSSRHYYGLDVWGQGTTVTVSS
chain 2: SYELTQPPSVSVSPGQTARITCSADALPNQYAYWYQQKPGQAPVLVIYKDSERPSGIPERFSGSSSGTTVTLTISGVQAEDEADYYCQSTDISPVVFGGGTKLTVL
pseudovirus neutralization IC50 [1]: 0.221 mg/L | pseudovirus neutralization IC50 [2]: 0.0394 mg/L | pseudovirus neutralization IC50 [3]: 2.75 mg/L | pseudovirus neutralization IC50 [4]: > 10 mg/L | pseudovirus neutralization IC50 [5]: 0.00834 mg/L | pseudovirus neutralization IC50 [6]: > 10 mg/L | pseudovirus neutralization IC50 [7]: 0.0837 mg/L | pseudovirus neutralization IC50 [8]: > 10 mg/L | pseudovirus neutralization IC50 [9]: > 10 mg/L | pseudovirus neutralization IC50 [10]: > 10 mg/L | pseudovirus neutralization IC50 [11]: > 10 mg/L

B5: BD58-0459 (protein)
chain 1: QVQLQESGPGLVKPSQTLSLTCTVSGGSISSVDYYWSWIRQLPGKGLEWIGYIYYTGSTYYNPSLKSRVTISVDTSKNQFSLKLSSVTAADTAVYYCAREVTYYDSWESPPDPWFDPWGQGTLVTVSS
chain 2: QSVLTQPPSVSGAPGQRVTISCTGNSSNIGAGYDVHWYQQLPGTAPKLLIYGNNNRPSGVPDRFSGSKSGTSASLAITGLQAEDEADYYCQSYDSSLKVFGGGTKLTVL
pseudovirus neutralization IC50 [1]: 0.00434 mg/L | pseudovirus neutralization IC50 [2]: 0.000581 mg/L | pseudovirus neutralization IC50 [3]: 0.0023 mg/L | pseudovirus neutralization IC50 [4]: 0.00749 mg/L | pseudovirus neutralization IC50 [5]: 0.000443 mg/L | pseudovirus neutralization IC50 [6]: 0.000661 mg/L | pseudovirus neutralization IC50 [7]: 0.00231 mg/L | pseudovirus neutralization IC50 [8]: 0.000553 mg/L | pseudovirus neutralization IC50 [9]: 0.000783 mg/L | pseudovirus neutralization IC50 [10]: 0.00342 mg/L | pseudovirus neutralization IC50 [11]: > 10 mg/L
